This experiment addresses H3-AC/68 HA (hemagglutinin of H3N2 A/Aichi/2/1968) (Influenza A virus A/Aichi/2/1968 (H3N2), strain, N-linked glycan at Asn38 of HA1). The experiment is described as follows: crystal structure.

B1: AF4H1K1 Fab (Fab, V domains shown)
VH: QVQLVESGGGVVQPGTSLRLSCEASGFTSSAYAMHWVRQAPGKGLEWVAVITFDGGYQYYADSVKGRFTISRDISRNTLHLHMNSLRAEDTAVYYCARDPLTKLLPFDWVSGGYFDYWGQGTLVTVSS
VL: not shown
notes: also called AF4H1K1 Fab fragment
Take B1: the binding result is reported as “binds”.
